A mixed list of measured activities; the numbers were collected in NIAID ChemDB.

All rows: whole-cell or culture tests; organism: Candida albicans

A number after MIC or MFC names an inhibition level or a share of isolates.

structure	cells	strain or isolate	read-out	method	result
O=C(/C=C/c1c(Cl)cccc1Cl)c1c[nH]c2ccccc12	-	ATCC 90028	MIC	broth dilution	200 µg/mL
COc1cccc(C(=O)Nc2ccc(C)cc2O)c1OC	-	-	MIC	-	2 µM
N=C(N)c1ccc2nc(-c3ccc(-c4nc5ccc(C(=N)N)cc5[nH]4)[nH]3)[nH]c2c1	-	Isolate 3028 fluconazole-resistant	MIC	-	0.78 µg/mL
CC(C)CC(NC(=O)c1nc2c(C(C)(C)C)cc(C(C)(C)C)cc2o1)C(=O)O	-	ATCC 44859	MIC	-	>500 µM
O=C(CCCCCCCCc1ccccc1)c1c(O)cc(O)c([C@@H]2C[C@@H](c3ccc(O)cc3)Oc3cc(O)ccc32)c1O	VERO	-	EC50	colony count	>20 µg/mL
Cc1ccc(NC(=O)Cc2ccc([N+](=O)[O-])cc2)c(O)c1	-	-	MIC	-	25 µM
CC(N1CCN(c2ccc(-n3cnnn3)cc2)C1=O)[C@](O)(Cn1cncn1)c1ccc(F)cc1F	-	TA	MIC	-	0.002–0.008 µg/mL
O=C(/C=C/c1cc(Cl)cc(Cl)c1)c1c[nH]c2ccccc12	-	ATCC 90028	MIC	broth dilution	200 µg/mL
CSC1=C(Nc2ccc(Br)c(C)c2)C(=O)c2cccnc2C1=O	-	ATCC 10231	MIC	-	3.2 µg/mL
COc1cc(OC)c2c(=O)cc(-c3ccccc3)oc2c1	-	-	EC50	-	>50 µg/mL
Clc1ccc(-c2nc3ccccc3n2Cc2nnc(Nc3ccc(Br)cc3)s2)cc1	-	-	MIC	-	50 µg/mL
C[C@H]1[C@H](O)[C@@H](C)/C=C/C=C/C=C/C=C/C=C/C=C/C=C/[C@H](O[C@@H]2O[C@H](C)[C@@H](O)[C@H](N)[C@@H]2O)C[C@@H]2O[C@](O)(C[C@@H](O)C[C@@H](O)CC[C@H](O)[C@@H](O)C[C@@H](O)CC(=O)O[C@H]1C)C[C@H](O)[C@H]2C(=O)O	-	-	EC50	-	0.01–0.02 µg/mL
C[C@H]1[C@H](O)[C@@H](C)/C=C/C=C/C=C/C=C/C=C/C=C/C=C/[C@H](O[C@@H]2O[C@H](C)[C@@H](O)[C@H](N)[C@@H]2O)C[C@@H]2O[C@](O)(C[C@@H](O)C[C@@H](O)CC[C@H](O)[C@@H](O)C[C@@H](O)CC(=O)O[C@H]1C)C[C@H](O)[C@H]2C(=O)O	-	52 strains	MIC50	-	1 µg/mL
IC(I)=C(I)CC1N=CN=N1	-	13 strains	MIC50	-	0.2 µg/mL
COc1ccccc1C(=O)Nc1ccc(C)cc1O	-	-	MIC	-	100 µM
C[C@H]1[C@H](O)[C@@H](C)/C=C/C=C/C=C/C=C/C=C/C=C/C=C/[C@H](O[C@@H]2O[C@H](C)[C@@H](O)[C@H](N)[C@@H]2O)C[C@@H]2O[C@](O)(C[C@@H](O)C[C@@H](O)CC[C@H](O)[C@@H](O)C[C@@H](O)CC(=O)O[C@H]1C)C[C@H](O)[C@H]2C(=O)O	-	n. 1s	MIC100	broth dilution	2 µM
Cc1ccc(N2N=C(c3c[nH]c4ccccc34)CC2c2ccc(Cl)c(Cl)c2)cc1	-	ATCC 90028	MIC	broth dilution	200 µg/mL
COc1cc(OC)cc(C(=O)Nc2ccc([N+](=O)[O-])cc2O)c1	-	-	MIC	-	50 µM
O[C@H]1[C@H]2c3cc4c(cc3CN3CCC(=C[C@@H]1O)[C@H]23)OCO4	-	ATCC 10231	MIC	broth dilution	3.56–57 µg/mL
c1ccc(-c2cnn3c4c(cnc23)CCCCCC4)cc1	-	-	MIC	-	25 µg/mL
C[C@@H](N1CCN(c2ccc(-n3cnnn3)cc2)C1=O)[C@](O)(C[n+]1cn(OC(=O)OCCCO)cn1)c1ccc(F)cc1F	-	TA	MIC	-	0.06 µg/mL
Cc1ccc(N2N=C(c3c[nH]c4ccccc34)CC2c2cc(Cl)cc(Cl)c2)cc1	-	ATCC 90028	MIC	broth dilution	200 µg/mL
OC(CN1CCN(c2ccc(OCc3ccncc3)cc2)CC1)(Cn1cncn1)c1ccc(F)cc1F	-	304362	MIC80	-	2 µg/mL
CCCCCCCCCCCC(=O)c1c(O)cc(O)c([C@@H]2C[C@H](c3ccc(O)cc3)Oc3cc(O)ccc32)c1O.CCCCCCCCCCCC(=O)c1c(O)cc(O)c([C@@H]2C[C@H](c3ccc(O)cc3)Oc3cc(O)ccc32)c1O	VERO	-	EC50	colony count	6 µg/mL
Fc1cccc(Nc2nnc(Cn3c(-c4ccc(Cl)cc4)nc4ccccc43)s2)c1	-	-	MIC	-	50 µg/mL
CC(C)(C)c1cc(C(C)(C)C)c2nc(C(=O)NCC(=O)O)oc2c1	-	ATCC 44859	MIC	-	>500 µM
c1ccc(-c2ccc(C(c3ccccc3)n3ccnc3)cc2)cc1	-	-	MIC50	-	0.67 µg/mL
CC(C)(C)c1cc(C(C)(C)C)c2oc(C(N)=O)nc2c1	-	ATCC 44859	MIC	-	62.5 µM
CSC1=C(Nc2ccc(Br)cc2Cl)C(=O)c2cccnc2C1=O	-	ATCC 10231	MIC	-	25 µg/mL
Nc1ncc2c(n1)CCCCCC2	-	-	MIC	-	50 µg/mL
COc1cc(OC)c2c(c1)OC(c1ccccc1)C/C2=N\O	-	-	EC50	-	>50 µg/mL
Clc1ccc(-c2nc3ccccc3n2Cc2nnc(Nc3ccccc3Br)s2)cc1	-	-	MIC	-	12.5 µg/mL
CCCCC/C=C\C/C=C\CCCCCCCC(=O)N[C@H]1C[C@@H](O)[C@@H](O)NC(=O)[C@@H]2[C@@H](O)[C@@H](C)CN2C(=O)[C@H]([C@H](C)O)NC(=O)[C@H]([C@H](O)[C@@H](O)c2ccc(O)cc2)NC(=O)[C@@H]2C[C@@H](O)CN2C(=O)[C@H]([C@H](C)O)NC1=O	-	-	MIC	-	0.3 µg/mL
Cc1ccc(N2N=C(c3c[nH]c4ccccc34)CC2c2c(Cl)cccc2Cl)cc1	-	ATCC 90028	MIC	broth dilution	200 µg/mL
CSC1=C(Nc2ccc(CCCC(=O)O)cc2)C(=O)c2cccnc2C1=O	-	ATCC 10231	MIC	-	25 µg/mL
Cc1ccc(C(=O)Nc2ccc(C)cc2O)c(C)c1	-	-	MIC	-	25 µM
COc1cc(NC2=C(SC)C(=O)c3ncccc3C2=O)cc(OC)c1	-	ATCC 10231	MIC	-	50 µg/mL
N#Cc1cc2c([nH]c1=O)CCCCCC2	-	-	MIC	-	50 µg/mL
Clc1ccc(-c2nc3ccccc3n2Cc2nnc(Nc3ccccc3Cl)s2)cc1	-	-	MIC	-	25 µg/mL
Cc1ccc(C)c(C(=O)Nc2ccc([N+](=O)[O-])cc2O)c1	-	-	MIC	-	25 µM
CCCOC(=O)On1cn[n+](C[C@](O)(c2ccc(F)cc2F)[C@@H](C)N2CCN(c3ccc(-n4cnnn4)cc3)C2=O)c1	-	TA	MIC	-	0.13 µg/mL
COc1ccccc1C(=O)Nc1ccc([N+](=O)[O-])cc1O	-	-	MIC	-	25 µM
CCOC(=O)c1ccc(NC2=C(SC)C(=O)c3ncccc3C2=O)cc1	-	ATCC 10231	MIC	-	12.5 µg/mL

The last 5 rows once more:

structure	cells	strain or isolate	read-out	method	result
Clc1ccc(-c2nc3ccccc3n2Cc2nnc(Nc3ccccc3Cl)s2)cc1	-	-	MIC	-	25 µg/mL
Cc1ccc(C)c(C(=O)Nc2ccc([N+](=O)[O-])cc2O)c1	-	-	MIC	-	25 µM
CCCOC(=O)On1cn[n+](C[C@](O)(c2ccc(F)cc2F)[C@@H](C)N2CCN(c3ccc(-n4cnnn4)cc3)C2=O)c1	-	TA	MIC	-	0.13 µg/mL
COc1ccccc1C(=O)Nc1ccc([N+](=O)[O-])cc1O	-	-	MIC	-	25 µM
CCOC(=O)c1ccc(NC2=C(SC)C(=O)c3ncccc3C2=O)cc1	-	ATCC 10231	MIC	-	12.5 µg/mL

ECn is the concentration giving n% inhibition of infection, replication or growth. a–b is a range or a potency band. Blank or dashed fields: not listed here. Lines come from different laboratories, so protocols vary.